Test results taken from ChEMBL document CHEMBL5113507, “Discovery of potent ebola entry inhibitors with (3S,4aS,8aS)-2-(3-amino-2-hydroxypropyl) decahydroisoquinoline-3-carboxamide scaffold” (Eur J Med Chem, 2022).

Legend:
Huh-7 = conditions: Ebolavirus, time 2910.0 min

SMILES | IC90 (Huh-7) | pIC50 (cells)
CC(C)(C)NC(=O)[C@@H]1C[C@@H]2CCCC[C@@H]2CN1C[C@H](O)CNCCc1ccc(Cl)cc1 | 1.27 µM | 5.92
CN(C)CCOc1ccc(/C(=C(/CCCl)c2ccccc2)c2ccccc2)cc1 [TOREMIFENE] | 0.78 µM | –

pIC50: −log10 of the molar value.
